# Assay results: patent US5266600A, “BU-4641V, an antibacterial, antiviral and antitumor antibiotic” (priority 1992, dated 1993)
# System: P. aeruginosa A9843A
compound,measurement,value
CC1=CCC2(C)C(=O)C(O)=C(C(C)CO)C2CC=C(C)C(O)CCC(C)=CCC1 (stereo not shown) [BU-4641V],MIC,> 100 µg/mL
